Measurements published in PMC5874247.
The exact form of at least one protein or probe is not confirmed.

Sequences of proteins named here, by UniProt entry; tags and fusion partners are left off. A change or cut given only in a name is not applied to a line headed by its entry.
UniProt P0A9A9: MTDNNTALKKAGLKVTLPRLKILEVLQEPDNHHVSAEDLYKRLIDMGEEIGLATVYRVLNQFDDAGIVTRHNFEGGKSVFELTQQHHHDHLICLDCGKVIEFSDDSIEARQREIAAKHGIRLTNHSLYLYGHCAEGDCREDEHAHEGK

Biological target: Fur (UniProt P0A9A9)
Test: EMSA
Settings: 100 uM Mn2+, 1 mM Mg2+; EMSA: 10 mM Tris-borate pH 7.5, 40 mM KCl, 7.5% glycerol, 1 mM MgCl2, 100 uM MnCl2, 4 mM DTT, 100 ug/mL BSA, 1 ug/mL sonicated salmon sperm DNA, 5 ng DNA in 25 uL, 37 C; recombinant protein; residues 1-148; probe letters rebuilt from the primers and the genome

TGCAAATTTGTGAAGCTTATCCTGTTATTATTTTAAGTTTCATGCCAAATTCTCTCACCAGATAATGCCGCCCTCTTCCGAAAAATAATCAAGAGGCCAAACAATATCTAAAATGATACAACTGTATCTATTCCCCTGAAAAATACATTATTCATTTGTATATTTTCCTCATCATTGCTTTTTATTTAAATCATCCGATAATCCCCTGAATATAATTATGTCAATAACCATCAGAAAAAGTGGATGATGAGGAAAAGGAT (double strand) [T6SS1 promoter fragment]
binding result: binds
